# Values from PubChem BioAssay AID504761 (Drosophila RNAi Screening Center, 2011).
# Assay: 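Fly genes whose silencing reduces dengue virus type 2 infection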 (primary screen)
# Cell system: D.Mel-2 cells from Drosophila
# Reagents: long dsRNA against Drosophila genes
# Treatment: infection with dengue virus type 2; dose and infection time not stated
# Measured: 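Cells stained for dengue envelope protein and imaged; percent of infected cells per well on duplicate plates, ranked by infection, with stained nuclei counted for cell number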
# Reading the numbers: infection score: higher = more virus-infected cells; cell count: higher = more cells in the well
# Active means: 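Very low infection ranking in both replicate wells (chance probability at most 0.065), then a retest showing infection dropped 1.5-fold or more at p below 0.05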
# Calls: active = confirmed: knock-down lowers infection; inactive = not picked or not confirmed
# In all, the deposit lists about 22,000 reagents; this is an unselected part of those with a known target gene and a result. Over the whole deposit, 116 (0.52%) are marked active. 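Calls depend on retest data that are not deposited; infection was ranked per plate without normalising between plates; the unit of the infection score is not given.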 Raw values are not corrected between plates. Reagents against one gene are numbered here. Not given: the amount of reagent, the time to read-out.
gene,reagent,"infection score, replicate 1","infection score, replicate 2","cell count, replicate 1","cell count, replicate 2",Call
CG9586,1,0.81,3.84,5950,6615,inactive
CG9586,2,14.9,16.6,6247,6412,inactive
CG33477,1,2.51,2.73,5857,7428,inactive
hdly,1,1.29,1.7,6580,6836,inactive
Asciz,1,1.19,6.76,6281,6136,inactive
Ntf-2,1,1.08,0.88,6188,6250,active
Ntf-2,2,0.68,3.13,5995,6190,inactive
CAH5,1,9.67,1.07,5337,6993,inactive
CG16717,1,5.81,3.02,5391,6255,inactive
CG16717,2,3.34,2.18,1078,1557,inactive
Or63a,1,1.95,7.28,5798,6000,inactive
nudC,1,3.21,2.69,6045,6774,inactive
nudC,2,2.71,3.51,6169,6094,inactive
CG15194 (retired record),1,4.18,3.25,6319,6855,inactive
CG15194 (retired record),2,1.78,1.02,6392,6755,inactive
Phax,1,7.32,6.2,6067,6214,inactive
Ddc,1,20.1,4.02,5489,6547,inactive
Rpn7,1,4.1,1.41,1754,2130,inactive
Rpn7,2,4.33,0.48,2751,3734,inactive
Hsp60C,1,13.8,0.61,5448,6364,inactive
Hsp60C,2,,13.6,298,5275,inactive
Nxf3,1,24.8,4.68,2609,6669,inactive
Npc2a,1,10.2,7.65,6847,7031,inactive
swa,1,14.3,3.44,497,6778,inactive
swa,2,7.34,1.98,5821,6857,inactive
CG4949,1,3.71,2.22,5930,6438,inactive
frma,1,12.5,1.61,5600,6396,inactive
frma,2,14.1,34.6,1348,5334,inactive
escl,1,10.5,10.9,6138,6516,inactive
escl,2,2.59,1.85,6287,5953,inactive
CG15676,1,7.35,6.57,6464,6497,inactive
CG15676,2,4.23,30.1,6045,5747,inactive
Nup214,1,10.1,8.86,5536,5745,inactive
Nnf1b,1,3.04,2.06,6668,6647,inactive
Nnf1b,2,2.3,0.88,5651,5444,inactive
Ucp4C,1,2.03,6.52,6101,6306,inactive
Ucp4C,2,10.3,6.82,5888,1643,inactive
CG15653,1,15.2,25.1,5899,6120,inactive
CCT1,1,11.7,3.23,1860,1422,inactive
CCT1,2,2.5,14.6,6168,5806,inactive

No new results follow: an excerpt of the list.
gene,reagent,"infection score, replicate 1","infection score, replicate 2","cell count, replicate 1","cell count, replicate 2",Call
Rpn7,2,4.33,0.48,2751,3734,inactive
Hsp60C,1,13.8,0.61,5448,6364,inactive
